The numbers were not newly measured in PMC7961048, “Hierarchized phosphotarget binding by the seven human 14-3-3 isoforms” (Nature Communications, 2021), which cites them from elsewhere.

Where two headings read alike, the source gives them in different places.

The series relates to 14-3-3 isoforms. Conditions: Figure 4 panel e.

B1: YWHAH (protein, UniProt Q04917 2-246, looked up)
14-3-3 protein eta: GDREQLLQRARLAEQAERYDDMASAMKAVTELNEPLSNEDRNLLSVAYKNVVGARRSSWRVISSIEQKTMADGNEKKLEKVKAYREKIEKELETVCNDVLSLLDKFLIKNCNDFQYESKVFYLKMKGDYYRYLAEVASGEKKNSVVEASEAAYKEAFEISKEQMQPTHPIRLGLALNFSVFYYEIQNAPEQACLLAKQAFDDAIAELDTLNEDSYKDSTLIMQLLRDNLTLWTSDQQDEEAGEGN
As to B1, the “number of interactions per isoform” value is on record as 46 (number of 1433 isoforms 1); 67 (number of 1433 isoforms 2); 63 (number of 1433 isoforms 3); 68 (number of 1433 isoforms 4); 114 (number of 1433 isoforms 5); 26 (number of 1433 isoforms 6). For the same molecule, the “number of interactions per isoform” value (number of 1433 isoforms 7) is recorded as 14.
